PubChem BioAssay AID624099 – ICCB-Longwood | 2012

- Purpose: 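Knock-downs relieving repression by E2 of an HPV18 LCR luciferase reporter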 (primary screen)
- System: human C33A cervical carcinoma cells (HPV-negative) stably expressing BPV1 E2 and an HPV18 LCR luciferase reporter
- Knock-down reagent: siRNA pool against human genes, 40 nM
- Duration: 72 h
- Measurement: 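Per-well luciferase luminescence, z-scored on each plate against the plate mean and SD with control wells left out, then averaged across three replicate plates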
- Scale: mean z-score and z-score: higher = stronger reporter signal, weaker E2 silencing
- Call rule: 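Mean z ≥ 2 together with z ≥ 2 in two or more of the three replicates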
The whole screen tested about 21,000 reagents; below is a part drawn at random. Over the whole deposit, 497 (2.4%) got an active call. 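Higher z means weaker E2 silencing; only reporter increases were scored, and knock-downs that hurt cell survival may mask genuine repressor factors.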

| target gene | PubChem SID | mean z-score | z-score, replicate A | z-score, replicate B | z-score, replicate C | activity call |
| --- | --- | --- | --- | --- | --- | --- |
| COL12A1 (GeneID 1303) | SID134316151 | -0.34 | -0.44 | -0.5 | -0.1 | inactive |
| HMMR (GeneID 3161) | SID134314977 | 0.11 | 0.75 | -0.17 | -0.25 | inactive |
| NMNAT3 (GeneID 349565) | SID134313546 | 0.1 | 0.45 | 0.04 | -0.2 | inactive |
| SMOC1 (GeneID 64093) | SID134318083 | 0.78 | 0.95 | 0.8 | 0.59 | inactive |
| SCFD2 (GeneID 152579) | SID134322612 | -2.16 | -2.19 | -2.19 | -2.09 | inactive |
| DYNC1LI2 (GeneID 1783) | SID134323849 | 0.41 | 0.35 | 0.55 | 0.34 | inactive |
| VTI1BP2 (GeneID 389246) | SID134327451 | 1.17 | 0.8 | 1.8 | 0.93 | inactive |
| PER3 (GeneID 8863) | SID134315873 | 0.61 | 0.93 | 0.61 | 0.3 | inactive |
| FAM86B1 (GeneID 85002) | SID134319108 | 0.82 | 0.27 | 0.89 | 1.31 | inactive |
| CEP170 (GeneID 9859) | SID134324859 | 0.02 | -0.09 | 0.1 | 0.03 | inactive |
| SPINK13 (GeneID 153218) | SID134327529 | -0.18 | -0.04 | -0.25 | -0.24 | inactive |
| LOC391047 (retired record) (GeneID 391047) | SID134327000 | 1.02 | 1.09 | 0.99 | 1 | inactive |
| LOC347424 (retired record) (GeneID 347424) | SID134326172 | 1.18 | 1.48 | 0.84 | 1.23 | inactive |
| NKD1 (GeneID 85407) | SID134322810 | -0.93 | -0.98 | -0.93 | -0.88 | inactive |
| ATAD5 (GeneID 79915) | SID134310602 | 0.27 | 0.87 | -0.07 | 0.01 | inactive |
| SLN (GeneID 6588) | SID134323360 | 0.09 | 0.2 | 0.08 | -0.02 | inactive |
| FLJ45478 (retired record) (GeneID 401534) | SID134329660 | -0.25 | -0.23 | -0.26 | -0.27 | inactive |
| FRMD5 (GeneID 84978) | SID134319101 | 0.44 | -0.21 | 0.73 | 0.81 | inactive |
| MPP3 (GeneID 4356) | SID56479238 | -1.35 | -1.32 | -1.38 | -1.35 | inactive |
| DMPK (GeneID 1760) | SID56478822 | -1.9 | -1.21 | -2.09 | -2.38 | inactive |
| WNT8B (GeneID 7479) | SID134314159 | 0.02 | -0.2 | 0.41 | -0.13 | inactive |
| ZNF2 (GeneID 7549) | SID134318310 | 0.58 | 0.51 | 0.59 | 0.63 | inactive |
| PTMAP5 (GeneID 150928) | SID134325151 | -2 | -1.82 | -2.29 | -1.89 | inactive |
| DCST2 (GeneID 127579) | SID134319965 | 0.39 | 0.43 | 0.37 | 0.36 | inactive |
| MMP25 (GeneID 64386) | SID134311389 | -0.44 | -0.32 | -0.61 | -0.38 | inactive |
| MMP25 (GeneID 64386) | SID134314016 | 0.36 | 0.84 | 0.32 | -0.09 | inactive |
| VPS36 (GeneID 51028) | SID134310577 | -0.48 | -0.87 | -0.02 | -0.55 | inactive |
| RECK (GeneID 8434) | SID134315809 | -0.17 | 0 | -0.29 | -0.21 | inactive |
| CRB3 (GeneID 92359) | SID134321215 | 0.15 | 0.04 | 0.42 | 0 | inactive |
| APOL2 (GeneID 23780) | SID134321344 | 0.76 | 0.96 | 0.62 | 0.69 | inactive |
| HLA-DQA1 (GeneID 3117) | SID134317460 | 0.16 | 0.06 | 0.09 | 0.33 | inactive |
| IL2RB (GeneID 3560) | SID134312918 | 0.1 | -0.1 | 0.21 | 0.19 | inactive |
| SOAT1 (GeneID 6646) | SID134310823 | 0.35 | 0.17 | 0.47 | 0.41 | inactive |
| CCDC106 (GeneID 29903) | SID134324109 | 1.31 | 1.35 | 1.3 | 1.29 | inactive |
| CDK4 (GeneID 1019) | SID56478598 | 1.05 | 0.98 | 0.97 | 1.2 | inactive |
| LOC389071 (retired record) (GeneID 389071) | SID134327269 | -1.31 | -1.19 | -1.33 | -1.4 | inactive |
| C2orf78 (GeneID 388960) | SID134327183 | 0.01 | -0.13 | 0.5 | -0.34 | inactive |
| DOCK7 (GeneID 85440) | SID134329239 | 0.43 | 0.52 | 0.15 | 0.62 | inactive |
| LOC283530 (retired record) (GeneID 283530) | SID134325138 | -1.4 | -1.65 | -1.61 | -0.93 | inactive |
| COL4A3 (GeneID 1285) | SID134315377 | 0.04 | 0.36 | -0.09 | -0.16 | inactive |
| LOC402434 (retired record) (GeneID 402434) | SID134329220 | -0.43 | -0.41 | -0.27 | -0.6 | inactive |

Laid out differently: 10 of the entries above.
target gene	PubChem SID	mean z-score	z-score, replicate A	z-score, replicate B	z-score, replicate C	activity call
FLJ45478 (retired record) (GeneID 401534)	SID134329660	-0.25	-0.23	-0.26	-0.27	inactive
FRMD5 (GeneID 84978)	SID134319101	0.44	-0.21	0.73	0.81	inactive
MPP3 (GeneID 4356)	SID56479238	-1.35	-1.32	-1.38	-1.35	inactive
DMPK (GeneID 1760)	SID56478822	-1.9	-1.21	-2.09	-2.38	inactive
WNT8B (GeneID 7479)	SID134314159	0.02	-0.2	0.41	-0.13	inactive
ZNF2 (GeneID 7549)	SID134318310	0.58	0.51	0.59	0.63	inactive
PTMAP5 (GeneID 150928)	SID134325151	-2	-1.82	-2.29	-1.89	inactive
DCST2 (GeneID 127579)	SID134319965	0.39	0.43	0.37	0.36	inactive
MMP25 (GeneID 64386)	SID134311389	-0.44	-0.32	-0.61	-0.38	inactive
MMP25 (GeneID 64386)	SID134314016	0.36	0.84	0.32	-0.09	inactive

The results go on.
| target gene | PubChem SID | mean z-score | z-score, replicate A | z-score, replicate B | z-score, replicate C | activity call |
| --- | --- | --- | --- | --- | --- | --- |
| HSD3BP4 (GeneID 128102) | SID134327072 | -0.44 | -0.23 | -0.58 | -0.51 | inactive |
| KCNH3 (GeneID 23416) | SID134315199 | -0.68 | -0.57 | -0.6 | -0.87 | inactive |
| MEPCE (GeneID 56257) | SID134320619 | 0.07 | -0.05 | 0.3 | -0.05 | inactive |
| USF3 (GeneID 205717) | SID134325815 | 1.39 | 1.32 | 1.45 | – | inactive |
| BCL11A (GeneID 53335) | SID134312120 | -0.31 | -0.14 | -0.37 | -0.43 | inactive |
| MMP27 (GeneID 64066) | SID134311391 | 0.2 | 0.02 | 0.25 | 0.32 | inactive |
| LRRC70 (GeneID 100130733) | SID134321892 | 0.02 | 0.22 | -0.13 | -0.03 | inactive |
| RPGR (GeneID 6103) | SID134323153 | -0.49 | -0.33 | -0.48 | -0.65 | inactive |
| CDH11 (GeneID 1009) | SID134317717 | 0.18 | 0.07 | 0.19 | 0.28 | inactive |
| GMIP (GeneID 51291) | SID134324765 | -0.98 | -0.51 | -1.19 | -1.24 | inactive |
| DPY19L3 (GeneID 147991) | SID134328892 | 0.35 | 0.19 | 0.68 | 0.2 | inactive |
| DPY19L3 (GeneID 147991) | SID134329987 | 0.97 | 0.79 | 0.92 | 1.21 | inactive |
| CCL19 (GeneID 6363) | SID134312770 | 1.17 | 1.25 | 1.18 | 1.07 | inactive |
| LOC388193 (retired record) (GeneID 388193) | SID134328632 | -0.14 | -0.19 | -0.27 | 0.04 | inactive |
| ARMC12 (GeneID 221481) | SID134322588 | 0.22 | 0.09 | 0.19 | 0.39 | inactive |
| LOC392531 (retired record) (GeneID 392531) | SID134329200 | -0.97 | -1.48 | -0.6 | -0.82 | inactive |
| DRG2 (GeneID 1819) | SID134315607 | 0.64 | 1.11 | 0.32 | 0.48 | inactive |
| SIAH2 (GeneID 6478) | SID134311882 | 0.71 | 0.82 | 0.5 | 0.81 | inactive |
| ATP6V0B (GeneID 533) | SID134315292 | 0.62 | 0.57 | 0.72 | 0.57 | inactive |
| G2E3 (GeneID 55632) | SID134312137 | -0.11 | 0.13 | -0.31 | -0.13 | inactive |
| LINC02120 (GeneID 340113) | SID134327568 | 1.45 | 1.37 | 1.44 | 1.54 | inactive |
| ARF5 (GeneID 381) | SID134315911 | -0.91 | -0.6 | -0.92 | -1.2 | inactive |
| LOC390367 (retired record) (GeneID 390367) | SID134328398 | 0.21 | 0.39 | 0.25 | 0 | inactive |
| UNC50 (GeneID 25972) | SID134319952 | -1.82 | -2.1 | -1.83 | -1.53 | inactive |
| SPTSSA (GeneID 171546) | SID134321112 | -0.35 | -0.07 | -0.66 | -0.31 | inactive |
| CYP3A43 (GeneID 64816) | SID134314037 | -0.13 | 0.04 | -0.68 | 0.24 | inactive |
| LOC389369 (retired record) (GeneID 389369) | SID134327677 | -0.95 | -0.76 | -1.05 | -1.05 | inactive |
| ANKAR (GeneID 150709) | SID134325608 | 0.08 | -0.03 | 0.04 | 0.23 | inactive |
| LUZP2 (GeneID 338645) | SID134328312 | -0.62 | -0.78 | -0.56 | -0.52 | inactive |
| DVL1 (GeneID 1855) | SID134310256 | 0.39 | 0.19 | 0.37 | 0.6 | inactive |
| TRIM59 (GeneID 286827) | SID134312293 | -0.82 | -0.78 | -0.74 | -0.94 | inactive |
| KPNA2 (GeneID 3838) | SID134310578 | 0.22 | 0.38 | 0.02 | 0.26 | inactive |
